Consider one compound from ChEMBL document CHEMBL2046269, “Phthalide and isocoumarin derivatives produced by an Acremonium sp. isolated from a mangrove Rhizophora apiculata” (2012).

The assay has as its system Cryptococcus neoformans. The settings on record: ATCC 90113.

Converted amounts (≈) assume the structure as drawn.

As a reminder, the MIC is the smallest concentration in the dilution series that meets the test's criterion for growth inhibition. In turn, `CC1=C[C@H]2O[C@@H]3C[C@@H](O)[C@](C)([C@@]2(C)CC1)[C@]31CO1` registered an MIC of 32 µg/mL (≈ 128 µM).
